Results from ChEMBL document CHEMBL1154198, “Chemical genetics of Plasmodium falciparum” (Nature, 2010).

Test system: Plasmodium falciparum
Experiment: ST_JUDE: Plasmodium falciparum K1 EC50 (uM) as measured by SYBR green dye
Format: functional, organism-based

Nc1nc(N)c([N+](=O)[O-])nc1[N+](=O)[O-] showed an EC50 of 3.54 µM.

This is a selection: effects in other tests are not listed, and their absence says nothing.
